Assay results from paper PMC6422396, “Amyloid properties of the yeast cell wall protein Toh1 and its interaction with prion proteins Rnq1 and Sup35” (Prion, 2018).

Target: T1, Sup35NM-CFP (S. cerevisiae, UniProt P05453 1-253)
T1 construct: Sup35 (translation termination factor eRF3) of S. cerevisiae, NM-domain (prion-forming domain); The cells also hold endogenous Sup35 ([PSI+] prion); also called Sup35 prion-forming domain fused to CFP; source: S. cerevisiae 74-D694, from pCUP-NM-CFP (pRS313 based), in cells
T1 sequence (looked up): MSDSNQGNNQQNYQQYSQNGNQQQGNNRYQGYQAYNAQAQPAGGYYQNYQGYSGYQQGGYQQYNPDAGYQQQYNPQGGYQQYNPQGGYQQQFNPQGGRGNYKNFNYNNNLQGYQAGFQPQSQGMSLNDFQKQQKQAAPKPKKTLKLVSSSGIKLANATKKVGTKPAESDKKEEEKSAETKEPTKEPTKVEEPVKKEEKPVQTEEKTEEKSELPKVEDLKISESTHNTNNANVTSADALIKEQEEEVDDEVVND
Experiment: FRET or BRET

B1: Toh1(20–365)-YFP hybrid protein (domain or fragment, S. cerevisiae, UniProt P46992 20-365, looked up)
chain: SGPQSYQKLDFTNVGFTGSYVDVNKFKDITNNESCTCEVGDRVWFSGKNAPLADYLSVHFRGPLKLKQFAFYTSPGFTVNNSRSSSDWNRLAYYESSSKTADNVTFLNHGGEASPCLGNALSYASSNGTGSASEATVLADGTLISSDQEYIIYSNVSCPKSGYDKGCGVYRSGIPAYYGYGGTTKMFLFEFEMPTETEKNSSSIGYYDLPAIWLLNDHIARTSQYPTNANCSCWASGCGEYDIFEAMNGTEKNHLYSTFHTFQGIEDLGTGIQSYGYITRNTTGTMKGGVVFDSSGNVVSFISDATPFNGTVSADTVNDLLAAIPENETYSSQLMSISATAPSTTS
notes: Toh1, GPI-anchored cell wall protein of S. cerevisiae, internal fragment amino acids 20–365, without the N-terminal signal peptide and the C-terminal peptide
  FRET efficiency: 3.9%
